According to PMC8443799, “Structural characterization of KKT4, an unconventional microtubule-binding kinetochore protein”:

Molecular target: T1, KKT4 BRCT domain (KKT4 463-645) (Trypanosoma brucei) (UniProt Q580Y8)
T1 sequence (looked up): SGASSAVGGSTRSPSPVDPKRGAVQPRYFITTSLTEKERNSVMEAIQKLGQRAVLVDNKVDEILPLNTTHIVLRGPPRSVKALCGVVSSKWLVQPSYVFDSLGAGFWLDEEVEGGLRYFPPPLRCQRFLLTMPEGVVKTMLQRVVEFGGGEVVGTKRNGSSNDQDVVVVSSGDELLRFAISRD
Assay: fluorescence anisotropy
Conditions: up to 1 uM protein, 1 nM DNA, failed to saturate the signal, legend says does not bind DNA, 25 mM HEPES pH 7.5, 50 mM NaCl, 0.5 mM TCEP, 30 min at room temperature, recombinant protein, residues 463-645, protein details: 6HIS removed by TEV, label: 5' 6-FAM

CAATATGTAAGGTGTTTTGGTGTAAAACACGCATTCTTGCATAACATGCA (double strand) [BA3098 50-bp CIR147 DNA probe]
binding result: binds more weakly

A weaker result is weaker than the reference pair of the same experiment. Tags and fusion partners may be left off the protein sequences shown.
